The entries are a selection whose mix differs from that of the whole data set. Activity calls are given as the source filed them. No stated cut-off is given here; in the data, active means inhibition above about 50%; inactive means the rest.

Among the data in PubChem BioAssay AID898 (University of Pittsburgh Molecular Library Screening Center, 2007) are inhibition values, retold here.

For the assay, the system named is YopH tyrosine phosphatase [Yersinia enterocolitica]. The assay is described as follows: YopH tyrosine phosphatase inhibitors, primary screen, biochemical, fluorescence Ex485/Em525 (AID 898). Conditions: hits give high values, concentration not given here.
For `O=C(OC1CN2CCC1CC2)C1c2ccccc2C=Cc2ccccc21` (stereo not drawn), the inhibition (in general, the change of the read-out against control, counted positive when it falls) is inactive: -32.6%.

As to `N/C(=N\O)c1c(N)no[n+]1[O-]`, the inhibition was inactive: 6.98%.

In the case of `c1ccc(CN2CCC(Nc3ccccc3)CC2)cc1`, the inhibition was inactive: 14.7%.

Take `CCN1CCC(Nc2cccc(F)c2)CC1`: the inhibition is inactive: -5.36%.

For `CCOc1ncccc1C(=O)NCC1(N2CCOCC2)CCCCC1`, the inhibition is inactive: -36.9%.

For the compound `CCC(CO)(C(=O)OC1CN2CCC1CC2)c1ccccc1` (stereo not drawn), the inhibition was inactive: -48.5%.

Consider `O=C(OC1CN2CCC1CC2)C1c2ccccc2Oc2ccccc21` (stereo not drawn), for which the inhibition is inactive: -27.7%.

`O=C(NCC1(N2CCOCC2)CCCCC1)c1cc2ccccc2o1`: the inhibition was inactive: -13.8%.

For the compound `COc1ccc(NC2CCN(CCc3ccccc3)CC2)c(OC)c1`, the inhibition is inactive: -33.4%.

On to `N#CC1(Nc2ccccc2)CCN(CCc2ccccc2)CC1`, for which the inhibition is inactive: -22.9%.

For `CN1CCN(CCOC(=O)C(O)(c2ccccc2)c2ccccc2)CC1`, the inhibition is inactive: -20.4%.

For the compound `O=C(NCC1(N2CCOCC2)CCCCC1)c1cc(=O)[nH]c2ccccc12`, the inhibition was inactive: 12.3%.

`CN1CCC(Nc2cccc(F)c2)CC1`: the inhibition is inactive: -31.9%.
